Test results: article PMC6191539, “NadA3 Structures Reveal Undecad Coiled Coils and LOX1 Binding Regions Competed by Meningococcus B Vaccine-Elicited Human Antibodies” (mBio, 2018)

Molecular target: the molecule itself
Experiment: crystal structure; X-ray, sitting-drop vapor diffusion at 20°C, 0.1 M sodium phosphate citrate pH 3.9, 5% PEG 1K, MPD; one trimer in the asymmetric unit

B1: NadA3 […] A33I I38L double mutant (domain or fragment)
chain: not shown
notes: NadA3, N. meningitidis serogroup B strain 2996, […], […] with A33I and I38L; PDB […] is the wild-type parent of the same limits; also called NadA3 A33I-I38L
  binding result: binds
